Measurements reported in patent US9663478B2, “Benzotriazine oxides as drugs targeting Mycobacterium tuberculosis” (priority 2011, dated 2017).

Test system: Vero cells
Experiment: Cytotoxicity against Vero cells (Cell Titer-Glo)
Conditions: for SI (CC50/MIC): Tables 1-4 and text; for SI: ratio of the CC50/TB-MIC, Tables P1-P3

Compound: CC(C)(C)Nc1n[n+]([O-])c2ccccc2[n+]1[O-] [Compound 8c, 3-(tert-butylamino)benzo[e][1,2,4]triazine 1,4-dioxide]
- SI (CC50/MIC): 6.4

Compound: [O-][n+]1nc(NC2CCC2)[n+]([O-])c2cc3c(cc21)CCC3 [Compound 15fd, Cyclobutyl-(5,8-dioxy-2,3-dihydro-1H-5,6,8-triaza-cyclopenta[b]naphthalen-7-yl)-amine]
- SI (CC50/MIC): 54

Compound: CCNc1n[n+]([O-])c2cc(C)c(OC)cc2[n+]1[O-] [Compound 15ga, 3-(ethylamino)-6-methoxy-7-methylbenzo[e][1,2,4]triazine 1,4-dioxide]
- SI (CC50/MIC): >40

Compound: CCN(CC)c1n[n+]([O-])c2ccccc2[n+]1[O-] [Compound 17o, 3-(diethylamino)benzo[e][1,2,4]triazine 1,4-dioxide]
- SI (CC50/MIC): 40

Compound: [O-][n+]1nc(N2CCCC2)[n+]([O-])c2ccccc21 [Compound 17q, 3-(pyrrolidin-1-yl)benzo[e][1,2,4]triazine 1,4-dioxide]
- SI (CC50/MIC): 56

Compound: CN(Cc1ccccc1)c1n[n+]([O-])c2cc3c(cc2[n+]1[O-])CCC3 [Compound 20t, 3-(benzyl(methyl)amino)-7,8-dihydro-6H-indeno[5,6-e][1,2,4]triazine 1,4-dioxide]
- SI (CC50/MIC): 53

Compound: CN(CCc1ccccc1)c1n[n+]([O-])c2cc3c(cc2[n+]1[O-])CCC3 [Compound 20u, 3-(methyl(phenethyl)amino)-7,8-dihydro-6H-indeno[5,6-e][1,2,4]triazine 1,4-dioxide]
- SI (CC50/MIC): 130

Compound: O=S1(=O)CCN(c2n[n+]([O-])c3cc4c(cc3[n+]2[O-])CCC4)CC1 [Compound 20v, 3-(thiomorpholinosulfone-1-yl)-7,8-dihydro-6H-indeno[5,6-e][1,2,4]triazine 1,4-dioxide]
- SI (CC50/MIC): 3.4

Compound: CC1CCCCN1c1n[n+]([O-])c2cc3c(cc2[n+]1[O-])CCC3 (stereo not shown) [Compound 20w, 3-(2-methylpiperidin-1-yl)-7,8-dihydro-6H-indeno[5,6-e][1,2,4]triazine 1,4-dioxide]
- SI (CC50/MIC): >40

Compound: CCN(CC)c1n[n+]([O-])c2ccccc2[n+]1[O-] [SRI-009728]
- SI: 39.6

Compound: [O-][n+]1nc(NC2CCC2)[n+]([O-])c2cc3c(cc21)CCC3 [SRI-012403]
- SI: 53.8

Compound: CCNc1n[n+]([O-])c2cc(C)c(OC)cc2[n+]1[O-] [SRI-012468]
- SI: 40

Compound: [O-][n+]1nc(N2CCCC2)[n+]([O-])c2ccccc21 [SRI-012495]
- SI: 55.8

Compound: CCNc1n[n+]([O-])c2cc3c(cc2[n+]1[O-])CCCC3 [SRI-012496]
- SI: 17.4

Compound: [O-][n+]1nc(NC2CCC2)[n+]([O-])c2cc3c(cc21)CCCC3 [SRI-012497]
- SI: 40.0

Compound: [O-][n+]1nc(NC2CC3CCC2C3)[n+]([O-])c2cc3c(cc21)CCCC3 (stereo not shown) [SRI-012498]
- SI: 40.0
